DMS reactivity of the HIV-1 5' RNA in monomer and dimer

The 5' region of HIV-1 NL4-3 RNA (positions 1-437):
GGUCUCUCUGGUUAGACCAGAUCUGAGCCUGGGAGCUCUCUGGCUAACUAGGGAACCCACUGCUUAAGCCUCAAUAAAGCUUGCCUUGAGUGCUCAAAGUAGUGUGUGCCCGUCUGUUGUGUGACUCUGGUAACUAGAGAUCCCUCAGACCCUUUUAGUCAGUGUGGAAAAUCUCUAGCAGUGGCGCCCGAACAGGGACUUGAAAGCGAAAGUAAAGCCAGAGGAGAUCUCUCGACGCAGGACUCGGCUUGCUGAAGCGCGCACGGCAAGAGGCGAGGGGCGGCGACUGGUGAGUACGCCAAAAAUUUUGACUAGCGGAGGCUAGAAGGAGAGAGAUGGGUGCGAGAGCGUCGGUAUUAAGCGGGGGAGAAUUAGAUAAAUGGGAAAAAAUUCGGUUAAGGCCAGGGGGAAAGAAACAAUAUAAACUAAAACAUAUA

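Mutant RNA libraries with 1G, 2G or 3G starts, with or without cap, were folded at 37 °C for 30 min. Monomer and dimer bands were cut from native gels after folding in high salt (300 mM KCl, 5 mM MgCl2) or low salt (40 mM KCl, 0.1 mM MgCl2). Each band was probed in the gel with DMS (170 mM, 15 min, 37 °C), with ethanol as control, and sequenced.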

Scale: normalised reactivity, A and C only; low values point to paired or protected bases, higher values to unpaired ones.
One numbering serves 1G, 2G and 3G.
A position is written with its base.

| position | domain | 2G capped low-salt dimer | 2G capped low-salt monomer | 2G uncapped high-salt dimer | 2G uncapped high-salt monomer |
|---|---|---|---|---|---|
| C218 | antiPAS | 0.06 | 0.03 | 0.08 | 0.03 |
| C219 | antiPAS | 0.06 | 0.04 | 0.07 | 0.04 |
| A220 | antiPAS | 0.23 | 0.33 | 0.24 | 0.37 |
| A222 | antiPAS | 0.29 | 0.27 | 0.34 | 0.29 |
| A225 | none | 0.83 | 0.76 | 0.86 | 0.84 |
| A227 | CU | 0.23 | 0.27 | 0.19 | 0.28 |
| C229 | CU | 0.15 | 0.26 | 0.14 | 0.27 |
| C231 | CU | 0.12 | 0.17 | 0.13 | 0.17 |
| C233 | CU | 0.17 | 0.30 | 0.14 | 0.27 |
| A235 | none | 0.74 | 0.64 | 0.75 | 0.70 |
| C236 | none | 0.43 | 0.53 | 0.39 | 0.49 |
| C238 | none | 0.47 | 0.74 | 0.41 | 0.69 |
| A239 | none | 0.71 | 0.55 | 0.75 | 0.63 |
| A242 | none | 1.04 | 0.83 | 1.06 | 0.91 |
| C243 | SL1 | 0.04 | 0.07 | 0.03 | 0.06 |
| C245 | SL1 | 0.07 | 0.25 | 0.05 | 0.25 |
| C248 | SL1 | 0.03 | 0.06 | 0.03 | 0.05 |
| C252 | SL1 | 0.06 | 0.23 | 0.03 | 0.20 |
| A255 | SL1 | 0.48 | 0.41 | 0.54 | 0.59 |
| A256 | SL1 | 1.03 | 0.78 | 1.11 | 0.87 |
| C258 | SL1 | 0.26 | 0.35 | 0.19 | 0.34 |
| C260 | SL1 | 0.38 | 0.45 | 0.28 | 0.49 |
| C262 | SL1 | 0.25 | 0.41 | 0.18 | 0.40 |
| A263 | SL1 | 0.81 | 0.22 | 0.93 | 0.27 |
| C264 | SL1 | 0.21 | 0.46 | 0.17 | 0.42 |
| C267 | SL1 | 0.06 | 0.17 | 0.04 | 0.14 |
| A268 | SL1 | 0.17 | 0.27 | 0.15 | 0.28 |
| A269 | SL1 | 0.25 | 0.44 | 0.21 | 0.47 |
| A271 | SL1 | 0.54 | 0.49 | 0.53 | 0.57 |
| C274 | SL1 | 0.25 | 0.67 | 0.20 | 0.60 |
| A276 | SL1 | 0.40 | 1.01 | 0.32 | 0.98 |
| C281 | none | 0.40 | 0.40 | 0.41 | 0.37 |
| C284 | SL2 | 0.15 | 0.24 | 0.15 | 0.21 |
| A286 | SL2 | 0.61 | 0.51 | 0.66 | 0.57 |
| C287 | SL2 | 0.40 | 0.29 | 0.42 | 0.31 |
| A293 | SL2 | 0.83 | 0.72 | 0.91 | 0.83 |
| A296 | SL2 | 0.60 | 0.58 | 0.58 | 0.63 |
| C297 | SL2 | 0.13 | 0.19 | 0.13 | 0.17 |
| C299 | SL2 | 0.06 | 0.06 | 0.07 | 0.07 |
| C300 | none | 0.07 | 0.05 | 0.09 | 0.10 |
| A301 | none | 0.26 | 0.22 | 0.25 | 0.23 |
| A302 | none | 1.16 | 1.16 | 1.18 | 1.11 |

5 of these entries, quoted again:

| position | domain | 2G capped low-salt dimer | 2G capped low-salt monomer | 2G uncapped high-salt dimer | 2G uncapped high-salt monomer |
|---|---|---|---|---|---|
| C284 | SL2 | 0.15 | 0.24 | 0.15 | 0.21 |
| A276 | SL1 | 0.40 | 1.01 | 0.32 | 0.98 |
| A256 | SL1 | 1.03 | 0.78 | 1.11 | 0.87 |
| A302 | none | 1.16 | 1.16 | 1.18 | 1.11 |
| C229 | CU | 0.15 | 0.26 | 0.14 | 0.27 |

Data from the supplement of Ye et al. 2022, doi:10.1038/s41594-022-00746-2.